# Assay results published in PMC5826968.
# Tested on: GmrA (Z0639)
# Experiment: EMSA with competition
# Conditions: 1 nM DNA, 0-120 nM GmrA, unlabeled competitor 10-150 nM; 20 mM Tris-HCl pH 7.5, 80 mM NaCl, 0.1 mM EDTA, 1 mM DTT, 37 C, 20 min, 20 uL; 10% native PAGE; recombinant protein; residues 1-338; protein details: N-terminal 6xHis (pET28a); label: DIG (terminal transferase); probe letters rebuilt from the primers and the genome
sequence,measurement,value
CTGCCACAGCGAGTGTTTATCCATTACACCTTCAGCGGTATAGAGTGAATTCACGATAAACAGCCCTGCGTTATATGAGTTATCGGCATGATTATCCGTTTCTGCAGGGTTTTTAATCGGACGATTAGTGGGTGAAATGAGGGGTTATTTGGGGGTTACAGGTAAATTCCAGGCAGAAAAAACCCCGCCGGTGGCGGGGAAGCACGTTGCTAACAAATTGCGCTTTATGTTGCCGGATGCGGCGTAAACGCCTTATCCGGCCTACAAGAATGTGCAAATTCAATAAATTGCAATTCAACTTGTAGGCCTGATAAGCGCAGCGCATCAGGCAATTTGGCGTTGCCGTCAGTCTCAGTTAATCAGGTTACAACGATTAACCCTGCAGCAGAGACAGAACCTGCTGCGGTACCTGGTTAGCTTTTGCCAGCACGGAGTTACCGGCCTGCTGAATGATCTGCGCTTTCGACATGTTGGACACTTCGGTCGCATAGTCGG (double strand) [fliA promoter (PfliA)],binding result,binds
